Measurements: publication PMC4604167

Biological target: protein-L (bacterial surface protein) (UniProt Q51918)
Assay: SPR

- other: 101%
Substance: barley-derived recombinant anti-HIV-1 monoclonal antibody 2G12 with KDEL tag
